Experimental data as given in patent publication US20030091594A1.

Assays:
[1] = molecular target: CD4-induced (CD4i) monoclonal antibody 48d; assay: SPR (BIACORE 2000), MAb 48d amine-coupled to CM5 chip, gp120 premixed with saturating sCD4 as analyte, 25 C
[2] = molecular target: CD4-induced (CD4i) monoclonal antibody 17b; assay: SPR (BIACORE 2000), MAb 17b amine-coupled to CM5 chip, gp120 premixed with saturating sCD4 as analyte, 25 C

8x gp120 pre-incubated with soluble CD4 (from UniProt P01730 26-394)
koff [1]: 0.0006 s⁻¹ | kon [1]: 300000 M⁻¹ s⁻¹ | Kd [2]: 4.5 nM
